In PubChem BioAssay AID1117319 (Southern Research Institute, 2015):
The other results are listed elsewhere or left out. Inconclusive results are not listed. Active and inactive are the calls of the source.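 Rule for the calls: active = inhibition above a set limit at one or more doses, reproduced on every date tested; inconclusive = results disagree between test dates, or hit never tested in dose response; inactive = the rest.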

Biological target: Virion infectivity factor (Human immunodeficiency virus type 1 group M subtype B (isolate BH10)) + Virion infectivity factor (Human immunodeficiency virus type 1 group M subtype B (isolate BRU/LAI)) + Virion infectivity factor (Human immunodeficiency virus type 1 group M subtype B (isolate PCV12)) + Virion infectivity factor (Human immunodeficiency virus type 1 group M subtype B (isolate HXB2)) + DNA dC->dU-editing enzyme APOBEC-3G (Homo sapiens) (UniProt P69720+P69721+P69722+P69723+Q9HC16)
Assay: HIV-1 Vif–A3G interaction blockers – biochemical, TR-FRET, GST-Vif 1-94, biotin-A3G peptide, dose response retest, primary screen (AID 1117319);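 note: Vif residues 1-94 fused to GST binding biotinylated APOBEC3G peptide 110-148; 0% = full assay without inhibitor and 100% = GST in place of GST-Vif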
Settings: TR-FRET GST-Vif / biotin-A3G peptide binding; active compounds read high

| SMILES | inhibition |
| --- | --- |
| CCOC(=O)c1ccc(NP(C)(=O)Oc2ccc(Cl)cc2)cc1 (configuration not stated) | inactive: 5.19% |
| CP(=O)(OC12CC3CC(CC(C3)C1)C2)OC12CC3CC(CC(C3)C1)C2 | inactive: 2.02% |
| CN(C)C(=O)c1c([N+](=O)[O-])cc([N+](=O)[O-])cc1[N+](=O)[O-] | inactive: -3.9% |
| COc1ccccc1OP(C)(=O)Nc1ccccc1Br (configuration not stated) | inactive: -1.96% |
| CC(C)(C)c1ccc(OP(C)(=O)O)cc1 | inactive: 4.68% |
| CP(=O)(Nc1ccc(Cl)cc1)Oc1ccc(F)cc1 (configuration not stated) | inactive: -5.26% |
| O=C(OCCCN1CCCC1)C(O)(c1ccccc1)C1CCCCC1 (configuration not stated) | inactive: 30.7% |
| COc1ccccc1OP(C)(=O)Nc1c(C)n(C)n(-c2ccccc2)c1=O (configuration not stated) | inactive: -4.6% |
| CCc1ccc(OP(C)(=O)Nc2cccnc2)cc1 (configuration not stated) | inactive: -5.33% |
| CP(=O)(Oc1ccccc1)N1CCOC1=O (configuration not stated) | inactive: 3.88% |
| COc1ccc(OP(C)(=O)Nc2ccc(Br)cc2)cc1 (configuration not stated) | inactive: -3.15% |
| COc1ccccc1OP(C)(=O)Nc1ccc(C)cc1C (configuration not stated) | inactive: 15.7% |
| CP(=O)(Nc1ccccn1)Oc1ccccc1 (configuration not stated) | inactive: -0.31% |
| CCc1ccc(OP(C)(=O)O)cc1 | inactive: 6.64% |
| Cc1c(NP(C)(=O)Oc2ccc(C(C)C)cc2)c(=O)n(-c2ccccc2)n1C (configuration not stated) | inactive: 1.91% |
| O=[N+]([O-])c1cc([N+](=O)[O-])c(Nc2ccccn2)c([N+](=O)[O-])c1 | inactive: -6.23% |
| COc1ccc(OP(C)(=O)Nc2ccccn2)cc1 (configuration not stated) | inactive: -6.23% |
| CN(C)CCOC(=O)C(O)(c1ccccc1)C1CCCC1 (configuration not stated) | inactive: 6.43% |
| COc1ccccc1OP(C)(=O)Nc1ccc(Br)cc1 (configuration not stated) | inactive: -6.5% |
| CCCCCCCCCCCCCCCC1C[N+](C)(C)CCOP(C)(=O)O1 (configuration not stated) | inactive: 3.91% |
| CP(=O)(Nc1ccc(Cl)cc1Cl)Oc1ccccc1 (configuration not stated) | inactive: 5.36% |
| CP(=O)(OCCOc1ccccc1)OCCOc1ccccc1 | inactive: -1.09% |
| Cc1nc2ccc3ccccc3c2o1.O=[N+]([O-])c1cc([N+](=O)[O-])c(O)c([N+](=O)[O-])c1 | inactive: 14% |
| COc1ccccc1OP(C)(=O)Nc1ccc(C)c(C)c1 (configuration not stated) | inactive: 6.36% |

| SMILES | inhibition |
| --- | --- |
| Cc1cc(C)cc(OP(C)(=O)Nc2cccc(C(F)(F)F)c2)c1 (configuration not stated) | inactive: 6.2% |
| O=C1C(O)=C([N+](=O)[O-])C(=O)C(O)=C1[N+](=O)[O-] | inactive: -0.02% |
| CP(=O)(Nc1ccccc1)Oc1ccc(F)cc1 (configuration not stated) | inactive: 12.8% |
| Cc1c([N+](=O)[O-])cc([N+](=O)[O-])c(Br)c1[N+](=O)[O-] | inactive: 6.03% |
| CCN(CC)CCCOC(=O)C(O)(c1ccccc1)C1CCCCC1 (configuration not stated) | inactive: 2.98% |
| CCOC(=O)c1ccc(NP(C)(=O)Oc2ccc(F)cc2)cc1 (configuration not stated) | inactive: 0.71% |
| O=C(OC1CN2CCC1CC2)c1ccc([N+](=O)[O-])cc1 (configuration not stated) | inactive: 4.46% |
| O=C(OCCN1CCN(CCOCc2ccccc2)CC1)C(O)(c1ccccc1)c1ccccc1 | inactive: 2.65% |
| CP(=O)(Nc1ccccc1F)Oc1ccccc1 (configuration not stated) | inactive: -1.28% |
| CC(C)c1ccc(OP(C)(=O)Nc2ccc(SC(F)(F)F)cc2)cc1 (configuration not stated) | inactive: -1.4% |
| O=[N+]([O-])c1cc([N+](=O)[O-])c(Nc2ccc(Cl)cc2)c([N+](=O)[O-])c1 | inactive: 3.11% |
| Cc1ccccc1NP(C)(=O)Nc1ccccc1C | inactive: 4.12% |
| CCOP(C)(=S)SCC(=O)NC(C)(CC)C(=O)O (configuration not stated) | inactive: -2.27% |
| CP(=O)(Nc1ccc(SC(F)(F)F)cc1)Oc1ccc(F)cc1 (configuration not stated) | inactive: -1.94% |
| O=[N+]([O-])c1ccc(OP2(=O)COCCO2)cc1 (configuration not stated) | inactive: -14.3% |
| O=[N+]([O-])c1cc([N+](=O)[O-])c(NCC2CCS(=O)(=O)C2)c([N+](=O)[O-])c1 (configuration not stated) | inactive: 3.25% |
| CN(C)CCOC(=O)C(O)(c1ccccc1)C1CCCCC1 (configuration not stated) | inactive: -3.22% |
| COc1ccc(NP(C)(=O)Oc2ccccc2OC)cc1 (configuration not stated) | inactive: 5.72% |
| COc1ccc(OP(C)(=O)Nc2cccc(Br)c2)cc1 (configuration not stated) | inactive: 28% |
| CP(=O)(Nc1ccc(SC(F)(F)F)cc1)Oc1ccccc1 (configuration not stated) | inactive: 16.4% |
| CN1CCCCC1COC(=O)C1(O)c2ccccc2CCc2ccccc21 (configuration not stated) | inactive: -2.02% |
| COc1ccccc1OP(C)(=O)Nc1c(C)cccc1C (configuration not stated) | inactive: -0.17% |
| CCOC(=O)C(CC)C1=NC(C)(C)Cc2ccccc21.O=[N+]([O-])c1cc([N+](=O)[O-])c(O)c([N+](=O)[O-])c1 (configuration not stated) | inactive: -2.69% |
| Cc1nc2ccc3ccccc3c2s1.O=[N+]([O-])c1cc([N+](=O)[O-])c(O)c([N+](=O)[O-])c1 | inactive: -0.25% |

| SMILES | inhibition |
| --- | --- |
| O=[N+]([O-])c1cc([N+](=O)[O-])c(-n2nnc3ccccc32)c([N+](=O)[O-])c1 | inactive: 23% |
| Cc1ccc(C)c(NP(C)(=O)Oc2ccccc2)c1 (configuration not stated) | inactive: 1.56% |
| Cc1cc(C)cc(OP(C)(=O)Nc2ccccn2)c1 (configuration not stated) | inactive: -3.16% |
| CP(=O)(Nc1cccc(Br)c1)Oc1ccccc1 (configuration not stated) | inactive: -8.56% |
| Cc1cc(C)cc(OP(C)(=O)Nc2ccc(C)cc2C)c1 (configuration not stated) | inactive: 4.08% |
| COc1ccccc1OP(C)(=O)Nc1cccc(Br)c1 (configuration not stated) | inactive: -0.82% |
| CC1=NCCc2c1[nH]c1ccccc21.O=[N+]([O-])c1cc([N+](=O)[O-])c(O)c([N+](=O)[O-])c1 | inactive: 9.98% |
| Cc1cc(C)cc(OP(C)(N)=O)c1 (configuration not stated) | inactive: 10.8% |
| COc1ccc(OP(C)(=O)Nc2cccc(F)c2)cc1 (configuration not stated) | inactive: -2.97% |
| COc1ccccc1OP(C)(=O)Nc1cc(Cl)ccc1C (configuration not stated) | inactive: 5.1% |
| Cc1ccc(NP(C)(=O)Oc2ccccc2)c(C)c1 (configuration not stated) | inactive: 0.68% |
| CCOC(=O)c1ccc(NP(C)(=O)Oc2ccccc2)cc1 (configuration not stated) | inactive: -8.7% |
| O=[N+]([O-])c1ccc2c(c1)C=Nc1ccccc1O2 | inactive: -2.17% |
| Cc1cccc(C)c1OP(C)(N)=O (configuration not stated) | inactive: -0.34% |
| CC(C)(C)c1ccc(OP(C)(=O)Nc2ccc(SC(F)(F)F)cc2)cc1 (configuration not stated) | inactive: -3.17% |
| CCN(CC)CCCOC(=O)C(O)(c1ccccc1)c1ccccc1 | inactive: 8.64% |
| CP(=O)(Nc1ccccn1)Oc1ccc(Cl)cc1 (configuration not stated) | inactive: 4.4% |
| CCOP(C)(=S)SCC(=O)NC(C)C(=O)O (configuration not stated) | inactive: 3.47% |
| CP(=O)(NC(=O)Nc1ccccc1)Oc1ccccc1 (configuration not stated) | inactive: 4.86% |
| CP(=O)(Oc1ccccc1)OC(c1ccccc1)C(F)(F)F (configuration not stated) | inactive: -1.89% |
| CP(=O)(Nc1ccc(SC(F)(F)F)cc1)Oc1ccc(Cl)cc1 (configuration not stated) | inactive: 12% |
| Cc1ccc(Nc2c([N+](=O)[O-])cc([N+](=O)[O-])cc2[N+](=O)[O-])cc1 | inactive: -4.75% |
| COc1ccccc1OP(C)(=O)Nc1ccccc1 (configuration not stated) | inactive: 2.64% |
| CP(=S)(Nn1cnnc1)Oc1ccccc1 (configuration not stated) | inactive: 1.21% |
